Results on one substance are retold here after PMC7048180.

Protein sequences, listed by entry. Tags and fused reporters are not part of them. Residues count along the entry.
UniProt Q9BYF1, 18-805: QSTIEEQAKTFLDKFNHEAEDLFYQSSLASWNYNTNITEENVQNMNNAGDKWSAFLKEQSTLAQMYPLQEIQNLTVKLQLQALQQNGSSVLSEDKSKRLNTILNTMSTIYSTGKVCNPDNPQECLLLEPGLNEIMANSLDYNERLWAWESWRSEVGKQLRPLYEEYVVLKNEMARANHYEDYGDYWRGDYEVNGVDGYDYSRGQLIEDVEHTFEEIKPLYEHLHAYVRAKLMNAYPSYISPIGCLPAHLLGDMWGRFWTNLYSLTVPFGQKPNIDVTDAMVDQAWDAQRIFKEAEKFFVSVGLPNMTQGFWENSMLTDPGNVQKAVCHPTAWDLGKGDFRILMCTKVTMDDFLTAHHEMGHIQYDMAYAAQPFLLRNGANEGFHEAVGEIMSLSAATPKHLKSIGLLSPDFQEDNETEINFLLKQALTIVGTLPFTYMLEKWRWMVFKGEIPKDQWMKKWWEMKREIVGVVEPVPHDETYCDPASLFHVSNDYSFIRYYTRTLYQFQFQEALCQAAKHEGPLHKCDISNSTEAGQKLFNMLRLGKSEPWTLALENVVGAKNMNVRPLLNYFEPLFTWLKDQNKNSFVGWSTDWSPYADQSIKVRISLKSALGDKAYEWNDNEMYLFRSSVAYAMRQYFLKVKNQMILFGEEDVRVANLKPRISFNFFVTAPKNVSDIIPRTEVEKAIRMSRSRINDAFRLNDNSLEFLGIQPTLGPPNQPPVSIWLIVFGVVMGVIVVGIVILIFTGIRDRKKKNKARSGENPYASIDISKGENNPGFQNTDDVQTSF

This experiment addresses 2019 novel coronavirus (2019-nCoV) spike protein receptor-binding domain (2019-nCoV). Put plainly: BLI.

With “human angiotensin-converting enzyme 2 (from UniProt Q9BYF1 18-805) (receptor)”, the Kd was 0.0152 µM.
